Experimental data taken from PMC5913352.
Construct, isoform or probe ends are uncertain for at least one entry.

Protein sequences, listed by entry. Tags and fused reporters are not part of them. Lines headed by an entry give the natural chain unless they say otherwise; changes in a name come on top.
UniProt Q8CXZ9: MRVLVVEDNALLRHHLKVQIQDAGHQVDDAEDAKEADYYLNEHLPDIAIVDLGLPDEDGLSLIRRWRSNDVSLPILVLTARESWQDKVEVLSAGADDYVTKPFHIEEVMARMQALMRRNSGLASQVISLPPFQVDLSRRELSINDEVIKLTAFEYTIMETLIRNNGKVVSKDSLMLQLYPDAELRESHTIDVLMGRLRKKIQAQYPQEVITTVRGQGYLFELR

How the values were obtained:
[1] = target: PhoP-P (phosphorylated with acetylphosphate) (UniProt Q8CXZ9); test: EMSA; conditions: phosphorylated PhoP 0-2.0 uM, binds more strongly than non-phosphorylated (P < 0.01); recombinant protein; residues 1-223; protein details: pET-28a fusion (His tag, HisTrap purified); probe letters rebuilt from the primers and the genome
[2] = target: PhoP (non-phosphorylated) (UniProt Q8CXZ9); test: EMSA; conditions: non-phosphorylated PhoP 0-2.0 uM; recombinant protein; residues 1-223; protein details: pET-28a fusion (His tag, HisTrap purified); probe letters rebuilt from the primers and the genome

Sequence: TCAATAATAAGCAGAACATCCAATAAAAACATACGCAATAACCTGAAGGATCCTGCCATATAAAAACAAACATTGTTTTTACATTTAATCTCTCTTGATTTTGTTTAATAATTGTTTATGTAAGATAATTTATTTTTATAATGATTACATGAAAACAAAAGAGGTTGGATATGAAATTGTTATTACTTACAGGTGCAACA (double strand) [PhlyF promoter 200 bp]
- binding result [1]: binds
- binding result [2]: binds
